Compound potency records, mixed from different reports. Data source: NIAID ChemDB in PubChem.

Shared fields: target-level tests; agent: HIV-1; protein: Integrase; method: strand transfer; endpoint: IC50

ICn is the concentration giving n% inhibition.

{"smiles": "O=C(O)/C(O)=C/C(=O)N(Cc1ccc(F)cc1)Cc1csc2ccc(Cl)cc12", "result": "<70 µM"}
{"smiles": "CCN1C/C(=C\\c2cc(O)c(O)c(O)c2)C(=O)/C(=C/c2cc(O)c(O)c(O)c2)C1", "result": "0.4 µM"}
{"smiles": "O=C1c2c(O)c(=O)n(CCc3cccs3)c(=O)n2CCN1Cc1ccc(F)cc1", "result": "<10 µM"}
{"smiles": "CC(c1ccc(F)cc1)N(C)C(=O)/C=C(\\O)C(=O)O", "result": "<70 µM"}
{"smiles": "OC(/C=C/c1ccc(Cl)c(Cl)c1)/C=C/c1ccc(Cl)c(Cl)c1", "result": ">100 µM"}
{"smiles": "CN(Cc1ccc(Cl)c(Cl)c1)C(=O)/C=C(\\O)C(=O)O", "result": "<70 µM"}
{"smiles": "O=C1/C(=C/c2cc(O)c(O)c(O)c2)CSC/C1=C\\c1cc(O)c(O)c(O)c1", "result": "0.5 µM"}
{"smiles": "O=C1c2c(O)c(=O)n(C(C3CC3)C3CC3)c(=O)n2CCN1Cc1ccc(F)cc1", "result": "<10 µM"}
{"smiles": "O=C(/C=C(\\O)c1cccc(OCc2ccccc2)c1)C(=O)NC1CCC(NC(=O)C(=O)/C=C(\\O)c2cccc(OCc3ccccc3)c2)CC1", "result": "7 µM"}
{"smiles": "[N-]=[N+]=NC[C@H]1O[C@@H](n2cnc3c(NC(=O)Nc4ccccc4)ncnc32)[C@H](O)[C@@H]1CC(=O)O", "strain": "NL4-3", "result": ">10 µM"}
{"smiles": "COC1NC(=O)/C(=C(\\O)[C@@H]2C3C(C=C(C)[C@H]2C[C@H]2OC4(CC[C@H](C)[C@@H](c5cc(O)cc(O)c5)O4)[C@@H](C)C[C@@H]2C)CC[C@@H](O)[C@@H]3C)C1=O", "result": "6.1 µM"}
{"smiles": "CN(Cc1cccc(Oc2ccccc2)c1)C(=O)/C=C(\\O)C(=O)O", "result": "<70 µM"}
{"smiles": "CC(C)n1c(=O)c(O)c2n(c1=O)C(CCN(C)S(C)(=O)=O)CN(Cc1ccc(F)cc1)C2=O", "result": "<10 µM"}
{"smiles": "CN(C(=O)/C=C(\\O)C(=O)O)C(Cc1ccc(F)cc1)c1ccc(F)cc1", "result": "<70 µM"}
{"smiles": "CC(C)n1c(=O)c(O)c2n(c1=O)C(CCN(C)C(=O)c1ccccc1)CN(Cc1ccc(F)cc1)C2=O", "result": "<10 µM"}
{"smiles": "Cc1cn2c(=O)c(O)c(-c3ncc(Cc4ccc(Cl)c(Cl)c4)s3)nc2s1", "result": "0.001–1 µM"}
{"smiles": "O=C(O)CC1C/C(=C\\c2cc(O)c(O)c(O)c2)C(=O)/C(=C/c2cc(O)c(O)c(O)c2)C1", "result": "0.2 µM"}
{"smiles": "Cc1ccc(C(=O)c2cccc(/C(O)=C/C(=O)C(=O)O)c2)cc1", "result": "14 µM"}
{"smiles": "CC(C)n1c(=O)c(O)c2n(c1=O)CCN(Cc1ccc3ccccc3c1)C2=O", "result": "<10 µM"}
{"smiles": "O=C(NCc1ccc(F)cc1)c1nc2sc(CN3CCOCC3)cn2c(=O)c1O", "result": "1–10 µM"}
{"smiles": "CCOC(=O)C[C@H]1[C@@H](O[Si](C)(C)C(C)(C)C)[C@H](n2cnc3c(NC(=O)Nc4ccccc4)ncnc32)O[C@@H]1CNC(=O)NC", "strain": "NL4-3", "result": ">10 µM"}
{"smiles": "CC(C)(C)OC(=O)N1CCC(NC(=O)C(=O)/C=C(\\O)c2ccc(F)cc2)CC1", "result": "100 µM"}
{"smiles": "CCOC(=O)CC1C/C(=C\\c2cc(O)c(O)c(O)c2)C(=O)/C(=C/c2cc(O)c(O)c(O)c2)C1", "result": "1.9 µM"}
{"smiles": "O=C(CCCC[C@@H]1SC[C@@H]2NC(=O)N[C@@H]21)NCc1cn(Cc2ccc(C(=O)c3cccc(/C(O)=C/C(=O)C(=O)O)c3)cc2)nn1", "result": "40.7 µM"}
{"smiles": "Cc1cn2c(=O)c(O)c(-c3ncc(Cc4ccc(Cl)cc4)s3)nc2s1", "result": "0.001–1 µM"}
{"smiles": "CNC(=O)NC[C@H]1O[C@@H](n2cnc3c(NC(=O)Nc4ccccc4)ncnc32)[C@H](O[Si](C)(C)C(C)(C)C)[C@@H]1CC(=O)N(C)OC", "strain": "NL4-3", "result": ">10 µM"}
{"smiles": "Cc1cn2c(=O)c(O)c(-c3ncc(Cc4ccc(F)c(Cl)c4)s3)nc2s1", "changes": "G140S/Q148H", "result": "1–10 µM"}
{"smiles": "CN1C(=O)[C@@H](c2cc(Cl)c(O)c(Cl)c2)NC(=O)[C@@H]2NC(=O)[C@@H](c3cc(Cl)c(O)c(Cl)c3)NC(=O)[C@H](NC(=O)C(=O)c3cc(Cl)c(O)c(Cl)c3)Cc3c[nH]c4c(cccc34)-c3cc2cc(c3O)Oc2ccc(cc2)C[C@H]1C(=O)O", "result": "0.3–0.5 µM"}
{"smiles": "CN1CCN(Cc2cn3c(=O)c(O)c(C(=O)NCc4ccc(Cl)c(Cl)c4)nc3s2)CC1", "result": "<0.001 µM"}
{"smiles": "CN(C)C(=O)CC1Cn2c(c(O)c(=O)n(C3CCCC3)c2=O)C(=O)N1Cc1ccc(F)cc1", "result": "<10 µM"}

Two numbers with a dash give a range or band. Neighbouring rows are from separate reports.